Test: Photooxidation of DHN under visible light irradiation in aerobic solution, DHN absorption monitored at 301 nm
Experimental: For a typical experiment, microliter amounts of standard solutions were combined, for illustration not limitation, microliter amounts of a standard solution of Fe(III) solutions (30 μL of 1.0×10^−2 M) and DHN solution (36 μL of 1.0×10^−2 M) added into a cuvette containing 3 mL of solution TMPyP (6.00×10^−6 M). Quartz cuvettes with 1 cm path-length and 3 mL volume were used for all measurements.
For singlet oxygenation of 1,5-dihydroxynaphthalene (DHN) by TMPyP in aqueous solution, a 3 mL solution of DHN (1.2×10^−4 M) and TMPyP (6.0×10^−6 M) was prepared by mixing 36 μL of 1×10^−2 M of DHN standard solution and 18 μL of 1×10^−3 M of TMPyP standard solution with ultrapure water. The solution was prepared at room temperature in an open atmosphere. Photooxygenation of samples was performed in a Rayonet photoreactor and monitored by recording a decrease of UV-vis absorption. For example, photoxygenation of DHN by TMPyP was performed in a Rayonet photoreactor for approximately twenty minutes at 28° C. and the photooxygenation of DHN was monitored by recording a decrease of UV-vis absorption of DHN at 301 nm for 20 minutes in 2 minutes intervals. […]

## Oc1cccc(-c2c3nc(c(-c4cccc(O)c4)c4ccc([nH]4)c(-c4cccc(O)c4)c4nc(c(-c5cccc(O)c5)c5ccc2[nH]5)C=C4)C=C3)c1 [m−THP, meso-tetra(m-hydroxyphenyl)porphine]
In the presence of 1.4×10^−4 M Fe(III) ions
  Times faster DHN photooxidation than without Fe(III): 1.25
In the presence of 5.0×10^−5 M Fe(III) ions
  Times faster DHN photooxidation than without Fe(III): 1.17

— US11324826B2, “Multifunctional treatment and diagnostic compositions and methods” (priority 2018, dated 2022)
